Measurements taken from article PMC9981719, “A novel designed membrane-active peptide for the control of foodborne Salmonella enterica serovar Typhimurium” (Scientific Reports, 2023).
Where no end group is shown, it is not given here.

Legend:
[1] = system: all Gram-positive strains; test: Geometric mean of MICs and therapeutic index, Gram-positive strains; format: cell-based; details: MHC > 250 taken as 500 µg/ml, < 0.98 as 0.49 µg/ml
Excerpt: (§1) All tests were done in triplicate.

[2] = system: all Gram-negative strains; test: Geometric mean of MICs and therapeutic index, Gram-negative strains; format: cell-based; details: MHC > 250 taken as 500 µg/ml, < 0.98 as 0.49 µg/ml
Excerpt: as §1

Compound | TI (Gr. + strains), ratio of the MHC to the geometric mean of MICs from all Gram-positive strains [1] | TI (Gr.- strains), ratio of the MHC to the geometric mean of MICs from Gram-negative strains [2]
CC[C@H](C)[C@H](NC(=O)CN)C(=O)NCC(=O)N[C@@H](C)C(=O)N[C@H](C(=O)N[C@@H](CC(C)C)C(=O)N[C@@H](CCCCN)C(=O)N[C@H](C(=O)N[C@@H](CC(C)C)C(=O)N[C@H](C(=O)N[C@H](C(=O)NCC(=O)N[C@@H](CC(C)C)C(=O)N1CCC[C@H]1C(=O)N[C@@H](C)C(=O)N[C@@H](CC(C)C)C(=O)N[C@H](C(=O)N[C@@H](CO)C(=O)N[C@@H](Cc1c[nH]c2ccccc12)C(=O)N[C@H](C(=O)N[C@@H](CCCCN)C(=O)N[C@@H](CCCNC(=N)N)C(=O)N[C@@H](CCCCN)C(=O)N[C@@H](CCCNC(=N)N)C(=O)N[C@@H](CCC(N)=O)C(=O)N[C@@H](CCC(N)=O)C(N)=O)[C@@H](C)CC)[C@@H](C)CC)[C@@H](C)O)[C@@H](C)O)C(C)C)C(C)C [Melittin, reference compound] | 0.13 | 0.07
GVKKVARKVVKIGRKVAR-NH2 [A9] | 4.00 | 5.66
WVKKVARKVVKIGRKVAR-NH2 [A11] | 6.35 | 22.62
GVKKVAHKVVKIGRKVAWGAVSGV-NH2 [A4] | 1.00 | 11.31
GVKKVAHKVVKIGRKVAW-NH2 [A6] | 1.00 | 8
